Compound potency records, mixed from different reports. Data source: NIAID ChemDB in PubChem.

Common to all: tests in culture; agent: Aspergillus fumigatus; endpoint: EC50

ECn: concentration that inhibits the pathogen or its effect by n%. Conditions beyond the fields shown may differ between rows. Blank or dashed fields: not listed here.

smiles | strain or isolate | read by | value
CCCCc1ccc(C(=O)Oc2c(OC)cc3ccnc4c3c2N(C)C=C4)cc1 | - | - | 5 µg/mL
Cc1ccc(-c2cc(C=O)no2)cc1 | Clinical isolates | - | 49.86 µg/mL
COc1cc2ccnc3c2c(c1OC(=O)c1ccccc1C)N(C)C=C3 | - | - | >15 µg/mL
Cc1onc(-c2ccc(F)cc2)c1C=O | Clinical isolates | - | 16.4 µg/mL
Cc1cc(C[n+]2cccc(C=NO)c2)on1.[Br-] | - | broth dilution | >20 µg/mL
COc1cc2ccnc3c2c(c1OC(=O)c1cccc(F)c1F)N(C)C=C3 | - | - | >15 µg/mL
O/N=C/c1cccc[n+]1Cc1ccc(C[n+]2ccccc2/C=N/O)s1.[Cl-].[Cl-] | - | broth dilution | >20 µg/mL
COc1cc2ccnc3c2c(c1OC(=O)c1ccc(F)c(F)c1)N(C)C=C3 | - | - | >15 µg/mL
CCCCCOc1ccc(-c2cc(-c3ccc(C(=O)N[C@H]4C[C@@H](O)[C@@H](O)NC(=O)[C@@H]5[C@@H](O)[C@@H](C)CN5C(=O)[C@H]([C@H](O)CC(N)=O)NC(=O)[C@H]([C@H](O)[C@@H](O)c5ccc(O)c(OS(=O)(=O)O)c5)NC(=O)[C@@H]5C[C@@H](O)CN5C(=O)[C@H]([C@@H](C)O)NC4=O)cc3)no2)cc1 | AF-294 | broth dilution | 1 µg/mL
CN(c1ccc(Cl)cc1)c1cc2ccccc2[n+](C)c1.[I-] | ATCC 90906 | resazurin | >20 µg/mL
NC(=O)c1cc[n+](CCCC[n+]2ccccc2/C=N/O)cc1.[Br-].[Br-] | - | broth dilution | >20 µg/mL
C[n+]1cccc(N(CCCCCC2CCCCC2)c2ccccc2C#N)c1.[I-] | ATCC 90906 | resazurin | >20 µg/mL
COc1cc2ccnc3c2c(c1OC(=O)CSc1ccccc1)N(C)C=C3 | - | - | >15 µg/mL
COc1ccccc1N(CCCCCC1CCCCC1)c1ccc[n+](C)c1.[I-] | ATCC 90906 | resazurin | >20 µg/mL
O=Cc1cc(-c2ccccc2Br)no1 | Clinical isolates | - | 36.61 µg/mL
CN(c1cccc(Cl)c1)c1cc2ccccc2[n+](C)c1.[I-] | ATCC 90906 | resazurin | >20 µg/mL
C[C@@H]1CCC2(OC1)OC1CC3C4C[C@H](OC5O[C@@H](CO)[C@H](O)[C@@H](O)[C@@H]5O)[C@H]5C[C@@H](OC6O[C@H](CO)[C@@H](O)[C@H](O)[C@H]6O)CC[C@]5(C)C4CC[C@]3(C)C1[C@@H]2C | ATCC 90906 | - | >20 µg/mL

2 of the rows above, restated:

smiles	strain or isolate	read by	value
Cc1cc(C[n+]2cccc(C=NO)c2)on1.[Br-]	-	broth dilution	>20 µg/mL
COc1cc2ccnc3c2c(c1OC(=O)c1ccccc1C)N(C)C=C3	-	-	>15 µg/mL